Results taken from patent publication US20200306295A1, “METHOD AND DEVICE FOR ANNIHILATION OF Staphylococcus aureus” (priority 2017, published 2020).

Tested on: MRSA
Type: cell-based, S. aureus
Settings: 48-day serial passage, sub-MIC antibiotic with 10 min laser
Procedure: To understand whether laser treatment could cause genotypic or phenotypic change in MRSA, and whether STX photolysis could reduce the resistance development for conventional antibiotics, a serial passage study for each treatment scenario was conducted. The initial generation (Day 1) used in this study was stationary-phase MRSA. The sample was prepared, washed and resuspended in 1×PBS at its original concentration. An aliquot (5 μl) of the MRSA suspension was transferred onto a glass cover slide as a droplet of ˜5 mm in diameter with or without 10 min laser treatment (1 cm diameter illumination area, 120 mW). The droplets were then collected and resuspended into 5 ml of TSB medium (1:1000 dilution) with an estimated cell concentration of 10^5 CFU/ml. To study resistance development or selection induced by laser treatment alone, three groups were included: a group without laser treatment (SPO), a group with laser treatment (SPL1), and another independent group with laser treatment as a duplicate (SPL2). […] These well plates were incubated in a shaker at 37° C. and 200 rpm for 18 hours followed by OD600 measurement by a plate reader. […] An aliquot (1 μl) was transferred and then sandwiched between two glass cover slides for STX quantification by resonance Raman spectroscopy.

Cc1onc(-c2ccccc2)c1C(=O)N[C@@H]1C(=O)N2[C@@H]1SC(C)(C)[C@@H]2C(=O)O [Oxacillin, oxacillin] was tested, and the “resistance development with laser treatment” value was “Delayed resistance development”.
